Each substance was assayed on H3K9me peptide (22-mer, amino acids 1–21 of histone H3 with a C-terminal tyrosine) (assay: Isothermal titration calorimetry (ITC) of HP1α chromodomain constructs with H3K9me peptide). Conditions: 20 °C, pH 6.80, one-site binding model.
Protocol: Protein solution (40 μM) was loaded into a VP-ITC isothermal titration calorimeter (Microcal, INC.) cell (active cell volume 1.4 ml). The solution was titrated against 400 μM ligand solution via a 250 μl titration syringe. Experiments were carried out at 20 °C. The ligand solution was prepared in the same buffer as the protein (20 mM KPB (pH 6.80), 10 mM NaCl). The heat of dilution generated by the ligand was subtracted, and the binding isotherms were fitted to a one-site binding model by using Origin 7 Software (Microcal, INC.). From the values of Kd and ΔH, the thermodynamic parameters, ΔG and ΔS were calculated according to the basic thermodynamic equations;

| Substance | N (stoichiometry) |
| --- | --- |
| phos-NCD^Δ1–9: phosphorylated NCD^Δ1–9 form, amino acids 10–80 of HP1α | 1.04 sites |
| NCD^Δ1–14: acidic segment plus CD, amino acids 15–80 of HP1α | 1.00 sites |
| phos-NCD^Δ1–4: NCD^Δ1–4 (amino acids 5–80) with phosphorylated serine residues | 1.03 sites |
| phos-NCD: chromodomain with phosphorylated N-terminal tail, amino acids 1–80 of HP1α, co-expressed with casein kinase II | 1.03 sites |
| NCD^Δ1–19: CD domain alone, amino acids 20–80 of HP1α | 1.08 sites |
| NCD^Δ1–4: N-terminal deletion mutant, amino acids 5–80 of HP1α | 1.04 sites |
| unmod-NCD: chromodomain with un-phosphorylated N-terminal tail, amino acids 1–80 of HP1α | 1.09 sites |
| NCD^Δ1–9: N-terminal deletion mutant, amino acid 10–80 of HP1α | 1.01 sites |

— PMC4776139, “Extended string-like binding of the phosphorylated HP1α N-terminal tail to the lysine 9-methylated histone H3 tail” (Scientific Reports, 2016)
